Experimental data: the supplement of paper PMC9931576
Substitutions are numbered along the chain they refer to. Human monoclonal antibodies against the spike receptor-binding domain (heavy:light variable regions). IC50 against pseudoviruses bearing the spike of naturally observed variants; lower = stronger; >10 µg/ml means not reached at the top dose. No active / inactive call. The stated detection limit is 0.0005 µg/ml; values near or below 0.001 µg/ml lie at the floor of the assay.

B1: BD56-1515 (protein)
chain 1: EVQVVESGGGLVKPGGSLRLSCAASGFTLSSYTMNWVRQAPGKGLEWVSSISGTSTHIFYSDSVKGRFTISRDNTKNSLFLQMNSLRVDDTAVYYCARDSEWGGDIVTGSSHLFDSWGQGTLVTVSS
chain 2: DIQMTQSPASLSAPVRGRVTITCRAGQTIGTSLNWYQQKPGKAPKLLIYAAFNLHSGVPSRFSGSGSGTHFTLTISSLQPEDFATYYCQQSYSAPPTFGGGTKVEIK
B2: BD56-1534 (protein)
chain 1: QVQLVESGGGVVQPGRSLRLSCAASGFTFSTYGMHWVRQAPGKGLEWVAVIWYDGSNKYYADSVKGRFTISRDNSKNTLYLQVNSLRAEDTAVYYCAKAGGTYCSGGDCYSAYFDYWGQGTLVTVSS
chain 2: EIVLTQSPGTLSLSPGERATLSCRASQSVSSSYLAWYQQKRGQAPRLLISGASSRAAGIPDRFSGSGSGTDFTLTISRLEPEDFAVYYCQQYVTSPLTFGGGTKVEIK
B3: BD56-1472 (protein)
chain 1: QVQLVQSAAEVKKPGSSVKVSCKASGGTFSSYTVSWMRQAPGQGLEWIGRIISVHAIVNYEQKFQGRVTITADTSTSTAFMELSSLRSEDTAVYYCASRNFDVLTGYESGHFDSWGQGTPVTVSS
chain 2: EIVMTQSPATLSVSPGERATLSCRASQSVSSNLAWYQQKPGQAPRLLIFDASTRATGIPVRFSGSGSGTEFTLTISSLQSGDFAVYYCQQYSKWPSFGGGTKVEIK
B4: BD56-1517 (protein)
chain 1: EVQLVESGGGLVQPGRSLRLSCVVSGFTFDDYAIHWVRQAPGKGLEWVSGISWNGGTIGYADSVRGRFIISRDNAKNSLYLQMNSLRVEDTALYYCAKERGLTERTYYDMDIWGQGTTVTVSS
chain 2: QSALTQPASVSGSPGQSITISCTGTSSDVGVYNYVSWYQQLPGKAPKLMISDVSKRPSGVSHRFSGSKSGNTASLSISGLQAEDEADYYCSSYTSHSTVIFGGGTKLTVL
B5: BD56-1524 (protein)
chain 1: QLQLQESGPGLVKPSETLSLTCTVSGGSITSSHYFWGWIRQPPGKGLEWIATMTYGGNSYYKPSLKSRLIISLDTSKDHISLRLSSVTAADTAVYYCVGNQWLRGPFDFWGQGILVTVSS
chain 2: NFMLTQPHSVSESPGKTVTISCTGSSGYIASNYVQWYQQRPGSAPTTLIYEDNQRPSGVPDRFSGSIDSSSNSASLTISGLKTEDEASYYCQSFDSNDLWVFGGGTKLTVL
B6: BD56-1470 (protein)
chain 1: QVQLQESGPGLVRPSETLSLTCSVSGGSLSHYYWTWIRQPPGKGLEWIGYMFHSGSTNYNPSLRSRVTISADTSKNQFSLKLKSVTAADTAMYFCAKDRGESSGWPDALDIWGQGTMVTVSS
chain 2: DIQMTQSPSSLSASVGDRVTITCQASQDISNYLNWYQQKPGKAPKLLIYDASNLEPGVPSRFSGSGSGTDFTFTISSLQPEDIATYYCQQYHNLPWTFGQGTKVEVK
B7: BD56-1478 (protein)
chain 1: QVHLQESGPGLVRPSETLSLTCSVSGGSISHYYWSWIRQSPGKGLEWIGYVFHSGSTNYNPSLRSRVTISVDTSKNQFSLKLRSVTAADTALYYCARDRGHSSGWPDALDIWGQGTMVTVSS
chain 2: B6 chain 2 with S9P, S30T, A51V, P56T, S65R, H92D, L94V, V106I
B8: BD56-1475 (protein)
chain 1: EVQLVESGGGLVQPGGSLRLSCAVSGFTVSSNYMSWVRQAPGKGLEWVSVIYPGGSTFYADSVKGRFTISRHNSKNTLYLQMNSLRLEDTAIYYCARDPYSRPVSWGQGTLVTVSS
chain 2: B6 chain 2 with S30R, L46V, P56T, H92D, W96I, K103R, V104L, V106I
B9: BD56-1527 (protein)
chain 1: EVQLVESGGGLVQPGRSLRLSCTASGITVDNYAMHWVRQAPGKGLEWVSGINWNGDGTGYADSVKGRFTISRDNARNSLYLQMNSLRVEDTAFYFCTKNRVGYNWNYQAVFDPWGQGTLVTVSS
chain 2: EIVLTQSPGTLSLSPGERATLSCRASQTVSSRYLAWYQQKPGQAPRLLIYGASSRATGIPDRFSGSGSGTDFTLTISRLEPEDFAVYYCQQYSRSPGSFGQGTKLDIK
B10: BD56-1543 (protein)
chain 1: QVQLVQSGAEVKKPGSSVKVICKASGGTFSSYAISWVRQAPGQGLEWMGGIIPILGTSRYAQKFQGRVTVTADESTSTAYMELSSLRSEDTAVYWCARELGYSGSGSNWYFDLWGRGTLVTVSS
chain 2: QSVLTQPPSVSGAPGQRVTISCTGSSSNIGAGYDVHWYQQLPGTAPKLLIYGNSNRPSGVPDRFSGSKSGTSASLAITGLQAEDEADYYCQSYDSSLSGSVFGGGTKLTVL
B11: BD56-1538 (protein)
chain 1: QVQLVQSGAEVKKPGASVKVSCKASGYTFINYYIHWVRQAPGQGLEWMGIINPSGDATSYAQKFQGRVTMTGDTSTSTVYMALTSLRSDDTAVYYCARGLIVPRWRHTEFDPWGQGTLVTVSS
chain 2: QSVLTQPPSVSAAPGQKVTISCSGSSSNIGDNYVSWYQQLPGTAPKLLIYDNNKRPSGIPDRFSGSKSATSATLGIAGLQTGDEADYYCGTWDSRLSSGVFGGGTKLTVL
B12: BD56-1481 (protein)
chain 1: QVQLVQSGAEVKKPGSSVRVSCKASGGTFSNYAISWVRQAPGQGLEWMGRIIPMFGISNYAQKFQGKVIFTADKSTSTAYMELSSLRSEDTAIYYCARGSYYSDTSGYFLDHWGQGTLVTVSA
chain 2: EIVLTQSPGTLSLSPGERATLSCRASQSVGGSYLAWYQQKPGQAPSLLIYGASNRATGVPDRFSGSGSGTDFTLTISRLEPEDFAVYYCHQYAGAPRTFGQGTKVEIK

Key:
Test in all cases: pseudovirus neutralization IC50; higher = weaker neutralization
[1] = target: SARS-CoV-2 Omicron BA.1 spike pseudovirus
Description: (§1)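 Single-round VSV luciferase pseudovirus mixed with antibody dilutions for 1 h and put on Huh-7 cells for about a day; IC50 from the dose curve.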

[2] = target: SARS-CoV-2 Omicron BA.2 spike pseudovirus
Description: as §1

[3] = target: SARS-CoV-2 Omicron BA.2.75 spike pseudovirus
Description: as §1

[4] = target: SARS-CoV-2 Omicron BA.5 spike pseudovirus
Description: as §1

[5] = target: SARS-CoV-2 Omicron BQ.1.1 spike pseudovirus
Description: as §1

[6] = target: SARS-CoV-2 Omicron XBB spike pseudovirus
Description: as §1

[7] = target: SARS-CoV-2 early D614G spike pseudovirus
Description: as §1

Binder	pseudovirus neutralization IC50 [1] [µg/mL]	pseudovirus neutralization IC50 [2] [µg/mL]	pseudovirus neutralization IC50 [3] [µg/mL]	pseudovirus neutralization IC50 [4] [µg/mL]	pseudovirus neutralization IC50 [5] [µg/mL]	pseudovirus neutralization IC50 [6] [µg/mL]	pseudovirus neutralization IC50 [7] [µg/mL]
B1	> 10	> 10	> 10	> 10	> 10	> 10	> 10
B2	> 10	> 10	> 10	> 10	> 10	> 10	> 10
B3	0.059	0.0636	0.0702	> 10	> 10	> 10	0.00115
B4	0.519	0.341	0.149	> 10	> 10	1.67	0.218
B5	> 10	> 10	> 10	> 10	> 10	> 10	0.125
B6	0.277	0.361	0.369	0.881	> 10	1.8	0.00836
B7	0.162	0.211	0.148	2.44	1.75	1.96	0.0108
B8	0.0999	0.146	> 10	> 10	> 10	> 10	0.0104
B9	> 10	> 10	> 10	> 10	> 10	> 10	> 10
B10	0.121	0.0575	0.106	> 10	> 10	> 10	> 10
B11	> 10	> 10	> 10	> 10	> 10	> 10	> 10
B12	> 10	> 10	> 10	> 10	> 10	> 10	0.00265
